Pooled drug test results. Numbers come from NIAID ChemDB, via PubChem.

Shared fields: target-level tests; organism: Plasmodium falciparum

An empty or dashed field is not shown. Conditions beyond the fields shown may differ between rows. ICn: concentration for n% inhibition.

O=C1C=C(O)c2ccccc2C1=O ; protein: Glutathione reductase ; read-out: IC50 ; value: >100 µM
COc1cc(OC)c(C=C2SC(=O)N(Cc3ccc(F)cc3)C2=O)c(OC)c1 ; protein: Falcipain-2 ; read-out: IC50 ; read by: fluorescence ; value: >50 µM
O=C1C=C(CF)C(=O)c2ccccc21 ; protein: Glutathione reductase ; read-out: IC50 ; value: 27.5 µM
Cc1ccc(N=C2SCC(O)=C2C(=O)O)cc1C ; protein: Dihydroorotate dehydrogenase ; read-out: IC50 ; value: >50 µM
CC(C)C[C@@H](/C=C/S(C)(=O)=O)NC(=O)[C@H](CC(C)C)NC(=O)C1CCC2(CC1)OOC1(OO2)C2CC3CC(C2)CC1C3 ; protein: Falcipain-2 ; read-out: IC50 ; read by: fluorescence ; value: 1.698 µM
CCOP(=O)(CCC(=O)Nc1cccc(O)c1)OCC ; protein: PfDXR ; read-out: IC50 ; read by: absorbance ; value: >500 µM
CC(=O)N(O)CCCP(=O)(O)O ; protein: PfDXR ; read-out: IC50 ; read by: absorbance ; value: 0.0153 µM
O=C1C(=O)c2ccccc2C(O)=C1C1CCC(c2ccc(Cl)cc2)CC1 ; protein: Glutathione reductase ; read-out: IC50 ; value: >25 µM
CC(C)C[C@H](NC(=O)C1CCC2(CC1)OOC1(O2)C2CC3CC(C2)CC1C3)C(=O)N[C@H](/C=C/S(=O)(=O)c1ccccc1)CCc1ccccc1 ; protein: Falcipain-2 ; read-out: IC50 ; read by: fluorescence ; value: 2.929 µM
COc1ccc(N2CCN(C(=O)CN3C(=O)SC(=Cc4c(OC)cc(OC)cc4OC)C3=O)CC2)cc1 ; protein: Falcipain-2 ; read-out: IC50 ; read by: fluorescence ; value: >50 µM
CN(C)C(=O)/C=C/[C@H](CCc1ccccc1)NC(=O)CN1C(=O)[C@@H](COC(=O)Nc2ccc(Cl)cc2C(F)(F)F)N=C(c2ccccc2)c2ccccc21 ; protein: Falcipain-2 ; read-out: Ki ; read by: fluorescence ; strain: FCBR ; value: 0.95 µM
CN(O)C(=O)CCC(c1ccccc1)P(=O)(O)O ; protein: PfDXR ; read-out: Ki ; read by: absorbance ; value: 0.00042 µM
CCOC(=O)C1=C(O)CSC1=Nc1cccc(C(F)(F)F)c1 ; protein: Dihydroorotate dehydrogenase ; read-out: IC50 ; value: >50 µM
O=C(CN1C(=O)SC(=Cc2ccc(OC(F)(F)F)cc2)C1=O)N1CCN(c2ccccc2)CC1 ; protein: Falcipain-2 ; read-out: IC50 ; read by: fluorescence ; value: 13.44 µM
O=S(=O)(/C=C/[C@H](CCc1ccccc1)NC1CCC2(CC1)OOC1(OO2)C2CC3CC(C2)CC1C3)c1ccccc1 ; protein: Falcipain-2 ; read-out: IC50 ; read by: fluorescence ; value: >50 µM
Cc1ccc(NC2=C(ON)C(=O)CS2)cc1C ; protein: Dihydroorotate dehydrogenase ; read-out: IC50 ; value: >50 µM
CCOP(=O)(CCC(=O)Nc1cccc(OC)c1)OCC ; protein: PfDXR ; read-out: IC50 ; read by: absorbance ; value: >500 µM
C=C1C(=O)C[C@@H]2/C=C(/COC(C)=O)CC/C=C(/C=O)C[C@@H](OC(=O)C(C)CC)[C@@H]12 ; protein: Lactate dehydrogenase ; read-out: IC50 ; strain: 3D7 ; value: 1.2 µg/mL
CC1(C)N=C(N)N=C(N)N1OCCCOc1cc(Cl)c(Cl)cc1Cl ; protein: Dihydrofolate reductase ; read-out: Ki ; changes: quadruple mutant ; read by: absorbance ; value: 0.0019 µM
CC(C)C[C@H](NC(=O)C1CCC2(CC1)OOC1(OO2)C2CC3CC(C2)CC1C3)C(=O)N[C@H](/C=C/S(=O)(=O)c1ccccc1)CCc1ccccc1 ; protein: Falcipain-2 ; read-out: IC50 ; read by: fluorescence ; value: 1.802 µM
COc1cccc(CN2C(=O)SC(=Cc3c(OC)cc(OC)cc3OC)C2=O)c1 ; protein: Falcipain-2 ; read-out: IC50 ; read by: fluorescence ; value: >50 µM
CC1=CC(=O)c2ccccc2C1=O ; protein: Glutathione reductase ; read-out: IC50 ; value: 42 µM
COc1cc(OC)c(C=C2SC(=O)N(CC(=O)O)C2=O)c(OC)c1 ; protein: Falcipain-2 ; read-out: IC50 ; read by: fluorescence ; value: >50 µM
COc1ccc2ccccc2c1C=C1C(=O)OC(C)(C)OC1=O ; protein: Histidine-rich protein 2 ; read-out: IC50 ; read by: ELISA ; value: 41.72 µM

Repeating the first 3 entries:

SMILES	protein	read-out	changes	read by	strain	value
O=C1C=C(O)c2ccccc2C1=O	Glutathione reductase	IC50				>100 µM
COc1cc(OC)c(C=C2SC(=O)N(Cc3ccc(F)cc3)C2=O)c(OC)c1	Falcipain-2	IC50		fluorescence		>50 µM
O=C1C=C(CF)C(=O)c2ccccc21	Glutathione reductase	IC50				27.5 µM